Pooled drug test results. Numbers come from NIAID ChemDB, via PubChem.

All rows: tests in culture; agent: Poliovirus; endpoint: inhibition

Inhibition is in % at the dose shown (toxicity tests: loss of growth or viability). "inactive" is the filed call at that dose; no cut-off is given. Lines come from different laboratories, so protocols vary.

| structure | strain | tested at | cells | result |
|---|---|---|---|---|
| CCC(=O)C(CCCCCCOc1ccc(OC)cc1Cl)C(=O)CC | MEF (TYPE 2) | 0.07 µM | HeLa | 44% |
| CC(=O)Oc1ccc(/C=C/C(=O)Oc2c(-c3ccc(Cl)c(Cl)c3)oc3ccccc3c2=O)cc1OC(C)=O | TYPE 2 | 0.39 µM | HeLa | 13% |
| Clc1ccc2c(c1)C=C(c1ccc(Br)cc1)CO2 | IA (TYPE 2) | 10 µM | HEP-2 | 48% |
| COc1cc(/C=C/C(=O)Oc2c(-c3ccc(Cl)cc3)oc3ccccc3c2=O)ccc1O | TYPE 2 | 6.25 µM | HeLa | 12% |
| CC(=O)c1ccc2c(c1)Sc1ccccc1S2 | TYPE 3 | 2 µg/mL | BSC-1 | 69% |
| Clc1ccc(C2=Cc3cc(Cl)ccc3OC2)cc1 | II (TYPE 2) | 10 µM | HEP-2 | 10% |
| COc1cc(C(=O)Oc2c(-c3ccc(Cl)c(Cl)c3)oc3ccccc3c2=O)cc(OC)c1O | TYPE 2 | 1.56 µM | HeLa | 15% |
| CNC(=O)OC(C)c1ccc2c(c1)Sc1ccccc1O2 | TYPE 3 | 2 µg/mL | BSC-1 | 22% |
| CC(=O)Oc1ccc(/C=C/C(=O)Oc2c(-c3ccc(Cl)cc3)oc3ccccc3c2=O)cc1OC(C)=O | TYPE 2 | 0.39 µM | HeLa | 7% |
| CC(=O)O[C@H]1CC2=CCC3C(CCC4(C)C(C(CCC=C(C)C)COS(=O)(=O)O)CCC34)C2(C)C[C@@H]1OS(=O)(=O)O | TYPE 3 | 80 µg/mL | VERO | 79.4% |
| C/C(=N\O)c1ccc2c(c1)Sc1ccccc1S2 | TYPE 3 | 10 µg/mL | BSC-1 | 61% |
| CC(C)=CCCC(CO)C1CCC2C3CC=C4C[C@H](O)[C@@H](O)CC4(C)C3CCC12C | TYPE 3 | 80 µg/mL | VERO | 78.1% |
| CC(O)c1cccc(Cc2ccccc2)c1 | TYPE 3 | 10 µg/mL | BSC-1 | 100% |
| COc1cc(/C=C/C(=O)Oc2c(-c3ccc(Cl)c(Cl)c3)oc3ccccc3c2=O)ccc1O | TYPE 2 | 1.56 µM | HeLa | 11% |
| CC(O)c1ccc2c(c1)Sc1ccccc1O2 | TYPE 3 | 2 µg/mL | BSC-1 | 100% |
| C1=C(c2ccccc2)COc2ccccc21 | II (TYPE 2) | 10 µM | HEP-2 | 93% |
| CC(N)c1ccc2c(c1)Sc1ccccc1O2 | TYPE 3 | 10 µg/mL | BSC-1 | 50% |
| O=c1c(O)c(-c2ccc(Cl)cc2)oc2ccccc12 | TYPE 2 | 6.25 µM | HeLa | 17% |
| Clc1ccc(C2=Cc3ccccc3OC2)cc1 | II (TYPE 2) | 10 µM | HEP-2 | 20% |
| CC(C)=CCC[C@@H](COS(=O)(=O)O)C1CCC2C3CC[C@H]4C[C@H](OS(=O)(=O)O)[C@@H](O)CC4(C)C3CCC21C | TYPE 3 | 80 µg/mL | VERO | 42.5% |
| c1ccc(C2COc3ccccc3C2)cc1 | SABIN (TYPE 2) | 10 µM | HEP-2 | 47% |
| COc1cc(C(=O)Oc2c(-c3ccc(Cl)c(Cl)c3)oc3ccccc3c2=O)cc(OC)c1OC(C)=O | TYPE 2 | 1.29 µM | HeLa | inactive |
| CC(C)/C=C/[C@@H](COS(=O)(=O)O)[C@H]1CC[C@H]2[C@@H]3CC[C@@H]4[C@H](O)[C@H](OS(=O)(=O)O)CC[C@]4(C)[C@H]3[C@@H](O)C[C@]12C | SABIN (TYPE 3) | 5 µg/mL | VERO | 10% |
| CC(=O)c1cccc(Oc2ccccc2)c1 | TYPE 3 | 0.4 µg/mL | BSC-1 | 75% |
| CC12CC[C@H](O)CC1=CCC1C2CCC2(C)C(C(=O)COS(=O)(=O)O)CCC12 | TYPE 3 | 40 µg/mL | VERO | 0% |
| C=C(CC[C@@H](COS(=O)(=O)O)[C@H]1CC[C@H]2[C@@H]3CC[C@@H]4[C@H](O)[C@H](OS(=O)(=O)O)CC[C@]4(C)[C@H]3[C@@H](O)C[C@]12C)C(C)C | SABIN (TYPE 3) | 5 µg/mL | VERO | 19% |

The last 2 rows once more:

| structure | strain | tested at | cells | result |
|---|---|---|---|---|
| CC12CC[C@H](O)CC1=CCC1C2CCC2(C)C(C(=O)COS(=O)(=O)O)CCC12 | TYPE 3 | 40 µg/mL | VERO | 0% |
| C=C(CC[C@@H](COS(=O)(=O)O)[C@H]1CC[C@H]2[C@@H]3CC[C@@H]4[C@H](O)[C@H](OS(=O)(=O)O)CC[C@]4(C)[C@H]3[C@@H](O)C[C@]12C)C(C)C | SABIN (TYPE 3) | 5 µg/mL | VERO | 19% |